Anti-infective test results gathered from many reports (values: NIAID ChemDB through PubChem).

Common to all: cytotoxicity tests; cell line: A549; measure: CC50

Neighbouring rows are from separate reports. CCn is the concentration with n% toxicity to the cells. An empty or dashed field is not shown.

SMILES	method	result
NC(=NC1CCCCCC1)c1ccc(N2CCN(c3ccc(C(N)=NC4CCCCCC4)cc3)CC2)cc1	-	>0.69 µg/mL
C=CCSc1n[nH]c(-c2ccc([N+](=O)[O-])c(C(F)(F)F)c2)n1	MTT	>100 µg/mL
CCCCSc1n[nH]c(-c2ccco2)n1	-	>100 µg/mL
FC(F)(F)c1ccc(-c2nc(=S)[nH][nH]2)cc1	MTT	81.35 µg/mL
CCSc1n[nH]c(-c2ccc([N+](=O)[O-])c(C)c2)n1	-	>100 µg/mL
CCCCCCN=C(N)c1ccc(N2CCN(c3ccc(C(N)=NCCCCCC)cc3)CC2)cc1	-	>0.409 µg/mL
CCC(C)Sc1n[nH]c(-c2ccc(C)cc2)n1	MTT	>100 µg/mL
N/C(=N\O)c1ccc(N2CCN(c3ccc(/C(N)=N/O)cc3)CC2)cc1	-	>181 µg/mL
Cl.Cl.NC(=NC1CCCCCCC1)c1ccc(N2CCN(c3ccc(C(N)=NC4CCCCCCC4)cc3)CC2)cc1	-	1.95 µg/mL
CCCCCCCCCN=C(N)c1ccc(N2CCN(c3ccc(C(N)=NCCCCCCCCC)cc3)CC2)cc1	-	3.17 µg/mL
COC1=CC(=O)c2c(O)c(C)c3cc(C)oc3c2C1=O	MTT	1.1 µg/mL
C=CCSc1n[nH]c(-c2cccc([N+](=O)[O-])c2C)n1	-	>100 µg/mL
COC1=CC(=O)c2c(O)c3c(c(O)c2C1=O)CC(C)(O)OC3	MTT	2.2 µg/mL
CCCCCCCCCCCCN=C(N)c1ccc(N2CCN(c3ccc(C(N)=NCCCCCCCCCCCC)cc3)CC2)cc1	-	14.3 µg/mL
CCC(C)CN=C(N)c1ccc(N2CCN(c3ccc(C(N)=NCC(C)CC)cc3)CC2)cc1.Cl.Cl	-	93.9 µg/mL
CC(C)CS[C@H]1C[C@@H](n2cnc3c(N)ncnc32)[C@H](O)[C@@H]1O	-	>200 µg/mL
c1ccc2[nH]c(-c3ccc(N4CCN(c5ccc(-c6nc7ccccc7[nH]6)cc5)CC4)cc3)nc2c1	-	6.08 µg/mL
CCCCSc1n[nH]c(-c2ccc([N+](=O)[O-])c(C)c2)n1	-	81.35 µg/mL
CCCCCN=C(N)c1ccc(N2CCN(c3ccc(C(N)=NCCCCC)cc3)CC2)cc1	-	>0.14 µg/mL
Fc1ccc(-c2nc(=S)[nH][nH]2)cc1	MTT	>100 µg/mL
CCSc1n[nH]c(-c2ccc(Cl)cc2C)n1	-	>100 µg/mL
C#CCSc1n[nH]c(-c2ccc([N+](=O)[O-])c(C(F)(F)F)c2)n1	MTT	>100 µg/mL
COc1cc(O)c2c(c1O)C1O[C@]3(C)C[C@H]1[C@@H](CO3)C2=O	MTT	92.5 µg/mL
C=CCSc1n[nH]c(-c2ccc([N+](=O)[O-])c(C)c2)n1	-	>100 µg/mL
CCC(C)CN=C(N)c1ccc(N2CCN(c3ccc(C(N)=NCC(C)CC)cc3)CC2)cc1	-	>0.107 µg/mL
C=C(C)[C@@H]1CCC2(C(=O)NCCC(=O)OCC)CC[C@]3(C)C(CCC4[C@@](C)(CC#N)C(C(C)(C)C(=O)NCCC(=O)OCC)CC[C@]43C)C12	MTT	>100 µM
N=C(N)c1ccc(OCCCCCOc2ccc(C(=N)N)cc2)cc1	-	18.2 µg/mL

Repeating the final 3 entries:

SMILES	method	result
CCC(C)CN=C(N)c1ccc(N2CCN(c3ccc(C(N)=NCC(C)CC)cc3)CC2)cc1	-	>0.107 µg/mL
C=C(C)[C@@H]1CCC2(C(=O)NCCC(=O)OCC)CC[C@]3(C)C(CCC4[C@@](C)(CC#N)C(C(C)(C)C(=O)NCCC(=O)OCC)CC[C@]43C)C12	MTT	>100 µM
N=C(N)c1ccc(OCCCCCOc2ccc(C(=N)N)cc2)cc1	-	18.2 µg/mL